Assay [1] in a line: E. coli growth modulation, two-sided OD650, primary screen, E. coli filamentation project, strain DRC41, 24 h (AID 1093).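 Note: MC1000 strain lacking acrAB efflux and sulA so SOS filamentation is blocked; test concentration not given here.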 The following applies: OD650, 24 h, higher = more signal, called active from +8 up or from −8 down.
Assay [2] deals with Plasmodium falciparum Sir2 (PF13_0152, Sir2A). Put plainly: pfSir2 binders on small-molecule microarrays, primary screen, biochemical, small-molecule microarray, 635 nm fluorescence (AID 1098).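 Note: score merges spot fluorescence intensity with its signal-to-noise ratio.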 The following applies: small-molecule microarray binding, fluorescence 635 nm; higher = more signal.
For assay [3], the system named is Human papillomavirus type 1a protein E7 (residues 44-93). The experiment in a line: HPV1a E7 fragment binders on microarrays, primary screen, biochemical, small-molecule microarray, residues 44-93, 635 nm fluorescence (AID 1108).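 Note: E7 fragment applied at 1 µg/mL in TBST for 1 h at 4 C; score combines spot fluorescence with its signal to noise ratio.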 The following applies: small-molecule microarray binding, fluorescence 635 nm; higher = more signal.
For assay [4], the target named is Alpha-bungarotoxin (Bungarus multicinctus) (UniProt P60615). The experiment in a line: alpha-bungarotoxin binders on microarray, profiling panel, artefact control for SMM control protein annotation, biochemical, small-molecule microarray, Alexa647 label, 635/667 nm fluorescence (AID 1117). The following applies: alpha-BTX-A647 binding fluorescence, higher = more signal.

Protein sequences, listed by entry. Tags and fused reporters are not part of them. Lines headed by an entry give the natural chain unless they say otherwise; changes in a name come on top.
UniProt P60615, whole entry, looked up: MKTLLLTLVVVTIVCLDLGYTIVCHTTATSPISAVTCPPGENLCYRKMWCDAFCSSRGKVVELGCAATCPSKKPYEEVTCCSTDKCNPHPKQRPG
UniProt Q08210: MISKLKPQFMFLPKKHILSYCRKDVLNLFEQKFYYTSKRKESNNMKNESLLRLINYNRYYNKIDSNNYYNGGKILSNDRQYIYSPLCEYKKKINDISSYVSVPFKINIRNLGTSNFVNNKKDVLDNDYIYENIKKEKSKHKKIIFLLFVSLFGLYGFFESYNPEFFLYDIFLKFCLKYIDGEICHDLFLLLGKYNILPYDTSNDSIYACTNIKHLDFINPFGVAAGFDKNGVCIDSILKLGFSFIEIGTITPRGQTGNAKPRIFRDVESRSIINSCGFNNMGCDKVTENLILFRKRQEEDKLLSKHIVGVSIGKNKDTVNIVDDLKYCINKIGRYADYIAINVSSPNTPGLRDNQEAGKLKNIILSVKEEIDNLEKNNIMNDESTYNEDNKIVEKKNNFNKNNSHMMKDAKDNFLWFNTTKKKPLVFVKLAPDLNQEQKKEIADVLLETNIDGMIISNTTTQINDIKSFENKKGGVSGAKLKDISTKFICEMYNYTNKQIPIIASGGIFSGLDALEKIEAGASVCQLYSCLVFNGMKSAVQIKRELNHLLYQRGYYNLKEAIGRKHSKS

Assay [5] has as its system Human papillomavirus type 1a E7 protein (residues 1-88). Put plainly: HPV1a E7 small-molecule binders, primary screen, biochemical, small-molecule microarray, residues 1-88, 635 nm (AID 1129). The note with it: small-molecule microarray binding, fluorescence 635 nm; higher = more signal.
A short description of assay [6]: E. coli DRC41 culture turbidity changes, primary screen, E. coli filamentation inducer project, strain DRC41, OD650, 48 h (AID 1152).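 Note: E. coli MC1000 strain DRC41 lacking acrAB efflux pump and sulA.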 The note with it: E. coli DRC41 (acrAB sulA), higher = more signal, called active from +8 up or from −8 down.
In assay [7] the target is Dihydroorotate dehydrogenase (quinone), mitochondrial (Plasmodium falciparum (isolate 3D7)) (UniProt Q08210). The experiment in a line: PfDHODH enzyme inhibitors, primary screen, biochemical, C-terminal His tag, absorbance 600 nm (AID 1175).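 Note: recombinant parasite enzyme with a five histidine tag at its C terminus; test concentration not given here.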 The following applies: DCIP absorbance 600 nm, higher = more signal, called active from +8 up or from −8 down.
Assay [8] is described as follows: E. coli acrAB mutant growth effects, primary screen, E. coli filamentation inducers, strain DRC39, OD650, 24 h (AID 1178).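 Note: growth measured as culture turbidity by optical density at 650 nm; test concentration not given here.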 The following applies: higher = more signal, called active from +8 up or from −8 down.
Assay [9] in a line: E. coli acrAB mutant growth effects, primary screen, E. coli filamentation inducers, strain DRC39, OD650, 48 h (AID 1179).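 Note: screen aims at cell division blockers that make cells filament.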 The following applies: E. coli DRC39 delta-acrAB growth, higher = more signal, called active from +8 up or from −8 down.
Assay [10] in a line: Plasmodium falciparum growth inhibition, primary screen, strain 3D7, DAPI fluorescence, 100 nL (AID 1184).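 Note: parasites grown inside human red blood cells in medium with human serum.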 The following applies: P. falciparum 3D7 growth, 3 d, higher = more signal.

The source of these data is PubChem BioAssay.

Molecules are shown by their SMILES. This is a selection; strong and weak results do not stand in their true shares. Some of the results follow. Calls of active or inactive are those of the source.

On to `COP(=O)(/N=C1/CC(CCCO)=CC(C2CC2)N1C)OC` (stereo not given), for which the z-score in assay [1] was inactive: 1.02; in [6] it was inactive: 1.44; in assay [8] it was inactive: 0.362; in assay [9] it was inactive: 0.283; in assay [10], 0.101. Also, the composite z-score was 0.859 in assay [2]; 0.345 in assay [3]; 0.654 in assay [4]; 0.358 in assay [5]; inactive: -4.87 in assay [7].
On to `O=P(/N=C1/CC(c2ccc(CO)cc2)=CC(C2CC2)N1Cc1cc2c(cc1Br)OCO2)(Oc1ccccc1)Oc1ccccc1` (stereo not given), for which the z-score in [1] is inactive: -0.213; in assay [6], inactive: -2.7; in assay [8] it was inactive: 0.455; in assay [9] it was inactive: -0.318; in assay [10] it was -1.95. Moreover, the composite z-score in [2] is 1.53; in [3], 1.08; in [4], 1.98; in [5] it was 1.25; in assay [7], inactive: -0.712.
As for `CC1C=C(CCCO)C/C(=N/P(=O)(Oc2ccccc2)Oc2ccccc2)N1Cc1cccc(OC(F)(F)F)c1` (stereo not given), the z-score was inactive: -0.051 in assay [1]; inactive: -0.713 in assay [6]; inactive: -1.08 in [8]; inactive: -0.964 in [9]; -1.79 in assay [10]. In addition, the composite z-score is -0.114 in assay [2]; 1.12 in assay [3]; 0.168 in assay [4]; 1.07 in assay [5]; inactive: 0.292 in assay [7].
With `CN1/C(=N\P(=O)(Oc2ccccc2)Oc2ccccc2)CC(CCCO)=CC1c1ccc(CN2CCCC2)cc1` (stereo not given), the z-score in [1] was inactive: 0.641; in [6], inactive: -0.0485; in assay [8], inactive: 0.0412; in assay [9] it was inactive: 0.0535; in assay [10] it was -0.939. Moreover, the composite z-score in assay [2] is 0.966; in assay [3], 1.26; in [4], 0.734; in [5] it was 1.13; in [7], inactive: -4.99.
In the case of `CN1/C(=N\P(=O)(Oc2ccccc2)Oc2ccccc2)CC(c2ccc(CO)cc2)=CC1c1cccs1` (stereo not given), the z-score in [1] was inactive: -0.0869; in assay [6], inactive: 2.08; in assay [8], inactive: 1.1; in assay [9], inactive: 0.333; in assay [10] it was -1.42. In addition, the composite z-score in assay [2] was 0.684; in assay [3], -0.717; in [4], 1.09; in [5], -0.538; in assay [7] it was inactive: 0.137.
On to `O=P(/N=C1/CC(CCCO)=CC(c2cccs2)N1Cc1cc2c(cc1Br)OCO2)(Oc1ccccc1)Oc1ccccc1` (stereo not given), for which the z-score in assay [1] was inactive: -1.08; in [6], inactive: -1.17; in assay [8], inactive: -0.264; in assay [9], inactive: -0.504; in assay [10], -1.12. Also, the composite z-score in assay [2] was 1.58; in assay [3], 1.33; in assay [4] it was 1.27; in assay [5], 1.22; in [7] it was active: -9.66.
On to `O=P(/N=C1/CC(CCCO)=CC(C2CC2)N1Cc1sc2ccccc2c1Cl)(Oc1ccccc1)Oc1ccccc1` (stereo not given), for which the z-score in assay [1] is inactive: -0.0549; in assay [6] it was inactive: -0.666; in assay [8], inactive: 0.452; in assay [9], inactive: 0.0776; in assay [10] it was -1.93. Also, the composite z-score in assay [2] was 0.549; in [3], 1.43; in assay [4] it was 1.1; in assay [5], 1.17; in [7] it was inactive: -2.31.
For `COP(=O)(/N=C1/CC(CCCO)=CC(c2ccc(CN3CCCC3)cc2)N1Cc1cccc(OC(F)(F)F)c1)OC` (stereo not given), the z-score in assay [1] is inactive: 0.454; in assay [6], inactive: 0.457; in [8] it was inactive: 0.822; in [9] it was inactive: 0.427; in assay [10], -2.92. The composite z-score in assay [2] is 1.13; in assay [3], 0.297; in assay [4], 1.51; in assay [5], 0.473; in assay [7] it was inactive: -6.13.
In the case of `O=P(/N=C1/CC(CCCO)=CC(c2ccc(CN3CCCC3)cc2)N1Cc1sc2ccccc2c1Cl)(Oc1ccccc1)Oc1ccccc1` (stereo not given), the z-score in [1] was inactive: -0.269; in assay [6], inactive: -0.785; in assay [8] it was inactive: -0.0581; in assay [9] it was inactive: -0.0524; in assay [10] it was -3.08. Moreover, the composite z-score in assay [2] was -0.178; in [3], 0.351; in [4], 1.08; in assay [5], 0.494; in assay [7], inactive: -0.241.
Consider `COP(=O)(/N=C1/CC(CCCO)=CC(C2CC2)N1Cc1sc2ccccc2c1Cl)OC` (stereo not given), for which the z-score is inactive: 0.771 in [1]; inactive: -0.104 in assay [6]; inactive: 1.84 in [8]; inactive: 0.708 in assay [9]; -2.97 in assay [10]. Also, the composite z-score is 0.936 in assay [2]; 1.22 in assay [3]; 2.27 in [4]; 1.06 in [5]; inactive: -2.27 in assay [7].
For `CN1/C(=N\P(=O)(Oc2ccccc2)Oc2ccccc2)CC(CCCO)=CC1c1cccs1` (stereo not given), the z-score in assay [1] was inactive: 0.514; in assay [6], inactive: -0.0231; in assay [8], inactive: -0.775; in [9] it was inactive: -0.488; in assay [10] it was -1.72. The composite z-score was 0.639 in assay [2]; 0.557 in assay [3]; 0.922 in [4]; 0.377 in [5]; inactive: -0.173 in [7].
As to `O=P(/N=C1/CC(c2ccc(CO)cc2)=CC(c2cccs2)N1Cc1cccc(OC(F)(F)F)c1)(Oc1ccccc1)Oc1ccccc1` (stereo not given), the z-score is inactive: -1.04 in assay [1]; inactive: -3.98 in assay [6]; inactive: -3.48 in assay [8]; inactive: -3.74 in assay [9]; -2.17 in assay [10]. In addition, the composite z-score was 1.19 in assay [2]; 1.24 in assay [3]; 1.77 in [4]; 1.27 in assay [5]; inactive: -0.341 in assay [7].
Turning to `O=P(/N=C1/CC(CCCO)=CC(c2ccc(CN3CCCC3)cc2)N1Cc1cc2c(cc1Br)OCO2)(Oc1ccccc1)Oc1ccccc1` (stereo not given), the z-score in assay [1] is inactive: 0.56; in assay [6], inactive: 0.435; in assay [8] it was inactive: 0.142; in assay [9], inactive: 0.0621; in [10] it was -1.64. Also, the composite z-score in [2] was 1.96; in [3], 0.916; in assay [4] it was -0.26; in assay [5], 0.402; in assay [7], inactive: -0.448.
On to `COP(=O)(/N=C1/CC(CCCO)=CC(C2CC2)N1Cc1cc2c(cc1Br)OCO2)OC` (stereo not given), for which the z-score in assay [1] is inactive: 0.435; in assay [6], inactive: 0.766; in [8], inactive: 1.53; in assay [9], inactive: 1.37; in [10], -1.85. Moreover, the composite z-score was 0.399 in assay [2]; 0.23 in assay [3]; 0.785 in [4]; 0.702 in [5]; inactive: -2.53 in assay [7].
For `CN1/C(=N\P(=O)(Oc2ccccc2)Oc2ccccc2)CC(c2ccc(CO)cc2)=CC1C1CC1` (stereo not given), the z-score was inactive: 0.0039 in [1]; inactive: 2.01 in assay [6]; inactive: 0.744 in assay [8]; inactive: 0.607 in assay [9]; -0.378 in [10]. For the same molecule, the composite z-score was 1.3 in assay [2]; 0.355 in [3]; 2.37 in assay [4]; 0.858 in [5]; inactive: -7.86 in [7].
